Data: publication PMC6624301, “Structural basis for transcription antitermination at bacterial intrinsic terminator” (2019)

Target: fluorescein-labeled P7 (R73C) (bacteriophage Xp10)
Experiment: fluorescence polarisation

Row | Substance | Kd [nM]
1 | Xoo transcription elongation complex (from UniProt B2SQT4;B2SQQ1;B2SQQ2;Q2P6M7) | 6.6
2 | Xoo RNAP core enzyme (from UniProt B2SQT4;B2SQQ1;B2SQQ2;Q2P6M7) (complex) | 6.1
